Article PMC7952403 (Nature Communications, 2021)
Positions count from the first letter of the chain named.

B1: STE70-1E12 scFv-Fc (scFv, V domains shown)
VH: QMQLVQSGAEVKKPGASVKVSCKASGYTFTGYYMHWVRQAPGQGLEWMGRINPNSGGTNYAQKFQGRVTMTRDTSTSTAYMELSRLRSDDTAVYYCVRDGYNFNNWFDPWGQGTLVTVSS
VL: NFMLTQPHSVSGSPGETITISCTGSGGSIASNYVQWYRQRPGSAPTIVIYEDTQRPSGVPDRFSGSIDSSSNSASLTISGLKTEDEADYYCQSSESTNHVMFGGGSKLTVL
notes: also called scFv-hFc; source: Expi293F, transient transfection, purified (Protein A)
B2: STE72-1B6 scFv-Fc (scFv, V domains shown)
VH: QVKLVQSGGGLVQPGGSLRLSCAASGFTFSSYAMSWVRQAPGKGLEWVSGISGSGGSTYYADSVKGRFTISRDNSKNTLYLQVNSLRAEDTAVYYCAKAPYGDFRGLWYFDYWGQGTLVTVSS
VL: DIVMTQSPFSVSASVGDRVTISCRASQDIRSWLAWYQQKPGKAPQLLIYDASSLQSGVPSRFSGSGSGTDFTLTISSLQPEDFATYYCQQADSVPLTFGGGTKVEIQ
notes: as for B1
B3: STE72-1G5 scFv-Fc (scFv, V domains shown)
VH: QVQLVQSGAEVKKPGASVKVSCKASGGTFSSYAISWVRQAPGQGLEWMGGIIPIFGTANYAQKFQGRVTITADESTSTAYMELSSLRSEDTAVYYCAVGGVQLWLTYWGQGTLVTVSS
VL: ETTLTQSPGALSLSPGERATLSCRVSQSLSSNSLAWYQQKPGQAPRLLIYDTSIRATGIPDRFSGSGSGTDFTLTISRLEPEDFAVYYCHKYGSWPRTFGQGTKVEV
notes: as for B1
B4: STE72-4C10 scFv-Fc (scFv, V domains shown)
VH: EVQLQESGGGVVQPGRSLRLSCAASGFTFSSYAMHWVRQAPGKGLEWVAVISYDGSNKYYADSVKGRFTISRDNSKNTLYLQMNSLRAEDTAVYYCAREYSSSWYGLGAFDIWGQGTMVTVSS
VL: DIRLTQSPSSLSASVGDRVTITCRASQNIHYYLNWYQQKPGKAPSLLVYGASSLQSGVPSRFSGSGSGTEYTLTISSLQPEDFATYFCQQSFKSPATFGQGTKVDIK
notes: as for B1
B5: STE72-4E12 scFv-Fc (scFv, V domains shown)
VH: QVQLVQSGAEVKKPGASVKVSCKASGYTFTSYYMHWVRQAPGQGLEWMGIINPSGGSTSYAQKFQGRVTMTRDTSTSTVYMELSSLRSEDTAVYYCARDLSGGLDYWGQGTLVTVSS
VL: ETTLTQSPATLSVSPGERVTLACRAGQTISSKLAWYRQKPGQAPSLLIYDASTRATGVPARFSGSGSGTEFTLTISSLQSEDFAVYYCQQYSDWPPTFGQGTKVEIK
notes: as for B1
B6: STE72-8E1 scFv-Fc (scFv, V domains shown)
VH: QVQLQEWGPGLVQPSETLSLTCTVSGGSISSGGYYWSWIRQHPGKGLEWIGRIYPSGSTNYNPSLKSRVTMSVDTSENQFSLKLSSVTAADTAVYYCARGGPKRSGSPFDVWGQGTMVTVSS
VL: EVVMTQSPSTLSASVGDRVTITCRASQTFGPWLAWYQQKPGQAPKLLIYMASELESGVPSRFSGSGSGTEFTLSISSLQPDDFATYYCQQYNTFSPWTFGQGTKVDIK
notes: as for B1
B7: STE72-2G4 scFv-Fc (scFv, V domains shown)
VH: QVQLVQSGAEVKKPGASVKVSCKASGYTFTSYGISWVRQAPGQGLEWMGWISAYNGNTNYAQKLQGRVTMTTDTSTSTAYMELRSLRSDDTAVYYCARFFYDSSGYSTDYWGQGTLVTVSS
VL: ETTLTQSPAFMSVTPGDRAILSCRASQSVDSHLAWYHQKPGQPPRLLIYGASTRATGIPARFSGSRSGTEFTLTISGLQSEDLGVYYCQQYASWPPGYNFGQGTKLEIK
notes: as for B1
B8: STE73-2B2 scFv-Fc (scFv, V domains shown)
VH: QVQLVQSGAEVKKPGASVKVSCKASGYTFTGYYMHWVRQAPGQGLEWMGWINPNSGGTNYAQKFQGRVTITRDTSASTAYMELSSLRSEDTAVYYCARVSGWYFGAFDIWGQGTMVTVSS
VL: LPVLTQPHSLSESPGKTVNISCTGSSGSIASNYVQWYQQRPGSAPTTVIYEDSHRPSGVPDRFSGSIDSSSNSASLSISGLKTEDEADYYCQSYDSSNNQWVFGGGTKLTVL
notes: as for B1
B9: STE73-2C2 scFv-Fc (scFv, V domains shown)
VH: QVQLVESGGGLVQPGGSLRLSCAASGITVSSNYMSWVRQAPGKGLEWVSVIYSGGSTFYADSVKGRFTISRDNSKNTLYLQMNSLRAEDTGVYYCARGHDNLDYWGQGTLVTVSS
VL: LPVLTQPHSVSESPGKTVIISCTGSSDSIASNYVQWYQQRPGSAPTTVIYEDNKRPSGVPDRFSGSTDSSSNSASLTISGLKTEDEAEYYCQSYDSNNHWVFGGGTKLTVL
notes: as for B1
B10: STE73-2G8 scFv-Fc (scFv, V domains shown)
VH: QVQLVQSGGGLVKPGGSLRLSCAASGITVSSNYMSWVRQAPGKGLEWVSILYSGGTTFYTDSVKGRFTISRDNSKNTLHLQMNSLRAEDTAVYYCARWSGTYYDYWGQGTLVTVSS
VL: SSELTQDPAVSVALGQTVRITCQGDSLRSYYASWYQQKPGQAPVLVIYGKNNRPSGIPDRFSGSSSGNTASLTITGAQAEDEADYYCNSRDSTNDPVLFGAGTKLTVL
notes: as for B1
B11: STE73-6C1 scFv-Fc (scFv, V domains shown)
VH: QVQLVQSGGGVVQPGRSLRLSCAASGFTFSSYAMHWVRQAPGKGLEWVAVISYDGSNKYYADSVKGRFTISRDNSKNTLYLQMNSLRAEDTAVYYCARSYVGGMDVWGQGTTVTVSS
VL: QLVLTQSPSVSGAPGQSVTISCTGTDSNIGAGYNVHWYQQLPGAAPKLIISYTDNRPSGVPDRFSGSKSGTSASLAITGLQAEDEADYYCQSSDRTLVGSLFGTGTKVTVL
notes: as for B1
B12: STE73-6C8 scFv-Fc (scFv, V domains shown)
VH: QVQLQQSGAEVKKPGSSVKVSCKASGGTFSSYAISWVRQAPGQGLEWMGRIIPILGIANYAQKFQGRVTITADKSTSTAYMELSSLRSEDTAVYYCARSIAALNWFDPWGQGTLVTVSS
VL: NFMLTQPHSVSESPGKTVTIPCTGSRGSIANNYVQWYRQRPGRAPTTVIFEDNQRPSGVPDRFSGSIDRSSNSASLTISGLETEDEADYYCQSYDGSNVIFGGGTKLTVL
notes: as for B1
B13: STE73-9G3 scFv-Fc (scFv, V domains shown)
VH: QVQLQESGGGLVQPGGSLRLSCAASGFTFSSYAMSWVRQAPGKGLEWVSAISGSGGSTYYADSVKGRFTISRDNSKNTLYLQMNSLRAEDTAVYYCARDLVLGSGSSNDWGRGTLVTVSS
VL: B11 VL with L2P, S7P
notes: as for B1

Target: T1, SARS-CoV-2 S1-S2 spike ectodomain with 6xHis tag, produced in High Five cells (SARS-CoV-2 Wuhan-Hu-1 (MN908947 / …, UniProt P0DTC2, […] | “GSAS” substitution at the furin site, residues 682–685)
T1 construct: also called S1-S2-His; S1-S2 trimer; not shown: 6xHis, C-terminal, kept
Assay: flow cytometry on cells
Details: both partners purified

| Binder | inhibition of S1-S2 binding to ACE2-positive cells at 1500 nM scFv-Fc |
| --- | --- |
| B1 | > 75% |
| B2 | > 75% |
| B3 | > 75% |
| B4 | > 75% |
| B5 | > 75% |
| B6 | > 75% |
| B7 | > 75% |
| B8 | > 75% |
| B9 | > 75% |
| B10 | > 75% |
| B11 | > 75% |
| B12 | > 75% |
| B13 | > 75% |
